Compound potency records, mixed from different reports. Data source: NIAID ChemDB in PubChem.

Shared fields: enzyme or target tests

ICn: concentration for n% inhibition. Blank or dashed fields: not listed here. Neighbouring rows are from separate reports. Percent inhibition refers to the dose given; in toxicity tests it is the harm to the cells. a–b is a range or a potency band.

| SMILES | organism | strain | target | endpoint | tested at | result |
|---|---|---|---|---|---|---|
| Nc1nc(N)c2c(n1)CCC(c1ccccc1)C2 | Cryptosporidium parvum | TYPE 1 | Dihydrofolate reductase | IC50 |  | >10 µM |
| CC(C)CC(=O)N(Cc1cccc(Cl)c1)c1cc(-c2ccccc2)sc1C(=O)O | Hepatitis C virus |  | NS3 ATPase | IC50 |  | <5 µM |
| Cc1c(-c2ccc(Cl)c(Cl)c2)sc2nc(N)nc(N)c12 | Cryptosporidium parvum | TYPE 2 | Dihydrofolate reductase | IC50 |  | >10 µM |
| Cc1c(-c2ccc(C=C3SC(=S)N(c4ccc(C(=O)O)cc4)C3=O)o2)sc2ccc(Cl)cc12 | Bovine viral diarrhea virus |  | NS5 polymerase | IC50 |  | ≤1 µM |
| Fc1ccc(-c2cncc(N3CCN(c4ccc(Cl)c(Cl)c4)CC3)n2)cc1 | Cytomegalovirus |  | UL97 kinase | inhibition | 10 µM | >15% |
| CC(C)CC(=O)N(Cc1ccc(F)cc1F)c1cc(-c2ccccc2)sc1C(=O)O | Hepatitis C virus |  | NS3 ATPase | IC50 |  | 5–20 µM |
| COc1cc(CN2CCc3nc(N)nc(N)c3C2)c(Br)c(OC)c1OC | Cryptosporidium parvum | TYPE 2 | Dihydrofolate reductase | IC50 |  | 2.1 µM |
| O=C(O)c1ccc(N2C(=O)C(=Cc3ccc(-c4nccs4)o3)SC2=S)cc1 | Bovine viral diarrhea virus |  | NS5 polymerase | IC50 |  | ≤1 µM |
| Fc1ccc(N2CCN(c3cncc(-c4ccc5ccccc5c4)n3)CC2)cc1 | Cytomegalovirus |  | UL97 kinase | IC50 |  | <1 µM |
| COc1cc(CCc2cc3c(N)nc(N)nc3s2)c(Br)c(OC)c1OC | Cryptosporidium parvum | TYPE 2 | Dihydrofolate reductase | IC50 |  | 5.1 µM |
| O=C(O)CCCCCc1ccc(N2C(=O)C(=Cc3ccc(-c4ccc(Cl)c(Cl)c4)o3)SC2=S)cc1 | Bovine viral diarrhea virus |  | NS5 polymerase | IC50 |  | ≤1 µM |
| CSc1ccc(-c2cncc(N3CCN(c4ccccc4)CC3)n2)cc1 | Cytomegalovirus |  | UL97 kinase | inhibition | 1 µM | <50% |
| O=C(O)c1sc(-c2ccccc2)cc1NS(=O)(=O)c1ccc(F)cc1F | Hepatitis C virus |  | NS3 ATPase | IC50 |  | <5 µM |
| Clc1ccc(N2CCN(c3cncc(-c4cccc5ccccc45)n3)CC2)cc1Cl | Cytomegalovirus |  | UL97 kinase | IC50 |  | <100 µM |
| CN(Cc1ccc2nc(N)nc(N)c2n1)c1ccc(C(=O)NC(CO)CCO)cc1 | Cryptosporidium parvum | TYPE 1 | Dihydrofolate reductase | IC50 |  | 2.4 µM |
| Cc1ccc(-c2ccc(C=C3SC(=S)N(c4ccc(C(=O)O)cc4)C3=O)o2)nc1 | Bovine viral diarrhea virus |  | NS5 polymerase | IC50 |  | ≤1 µM |
| COc1cccc(-c2cncc(N3CCN(c4cccc(Cl)c4)CC3)n2)c1 | Cytomegalovirus |  | UL97 kinase | IC50 |  | <10 µM |
| O=C(O)c1ccc(N2C(=O)C(=Cc3ccc(-c4ccccc4Cl)o3)SC2=S)cc1 | Bovine viral diarrhea virus |  | NS5 polymerase | IC50 |  | ≤1 µM |
| CC(=O)c1ccccc1-c1cncc(N2CCN(c3ccc(F)cc3F)CC2)n1 | Cytomegalovirus |  | UL97 kinase | IC50 |  | <10 µM |
| Nc1nc(N)c2c(ccc3ccc(Cl)cc32)n1 | Cryptosporidium parvum | TYPE 1 | Dihydrofolate reductase | IC50 |  | 0.023 µM |
| CSc1ccc(-c2cncc(N3CCN(c4ccccc4F)CC3)n2)cc1 | Cytomegalovirus |  | UL97 kinase | IC50 |  | <10 µM |
| Cc1ccc(C(=O)N(c2cc(-c3ccccc3)sc2C(=O)O)C(C)C)cc1F | Hepatitis C virus |  | NS3 ATPase | IC50 |  | <5 µM |

A second listing of 2 rows from above:

SMILES,organism,strain,target,endpoint,tested at,result
COc1cc(CCc2cc3c(N)nc(N)nc3s2)c(Br)c(OC)c1OC,Cryptosporidium parvum,TYPE 2,Dihydrofolate reductase,IC50,,5.1 µM
COc1cc(CN2CCc3nc(N)nc(N)c3C2)c(Br)c(OC)c1OC,Cryptosporidium parvum,TYPE 2,Dihydrofolate reductase,IC50,,2.1 µM